This note sets out measurements from publication PMC6780063 (Marine Drugs, 2019).

Chains of the proteins cited; added tags and fusions are not shown. Lines headed by an entry give the natural chain unless they say otherwise; changes in a name come on top. Residues count along the entry.
UniProt P07510, 23-517 limits assumed: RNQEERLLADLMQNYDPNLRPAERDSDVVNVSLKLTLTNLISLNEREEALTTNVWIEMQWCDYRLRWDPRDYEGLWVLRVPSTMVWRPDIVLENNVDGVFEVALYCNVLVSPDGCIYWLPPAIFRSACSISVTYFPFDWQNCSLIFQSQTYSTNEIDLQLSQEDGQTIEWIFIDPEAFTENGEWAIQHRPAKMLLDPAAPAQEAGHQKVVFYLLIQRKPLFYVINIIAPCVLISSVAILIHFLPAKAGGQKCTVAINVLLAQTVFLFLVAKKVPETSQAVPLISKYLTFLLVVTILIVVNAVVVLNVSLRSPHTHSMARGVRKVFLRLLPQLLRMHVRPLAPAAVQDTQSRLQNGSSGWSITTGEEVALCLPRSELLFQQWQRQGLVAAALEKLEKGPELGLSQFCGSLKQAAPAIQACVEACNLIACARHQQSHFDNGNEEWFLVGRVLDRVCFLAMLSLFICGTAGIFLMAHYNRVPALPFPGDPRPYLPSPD
UniProt P11230, 24-501 partner limits assumed: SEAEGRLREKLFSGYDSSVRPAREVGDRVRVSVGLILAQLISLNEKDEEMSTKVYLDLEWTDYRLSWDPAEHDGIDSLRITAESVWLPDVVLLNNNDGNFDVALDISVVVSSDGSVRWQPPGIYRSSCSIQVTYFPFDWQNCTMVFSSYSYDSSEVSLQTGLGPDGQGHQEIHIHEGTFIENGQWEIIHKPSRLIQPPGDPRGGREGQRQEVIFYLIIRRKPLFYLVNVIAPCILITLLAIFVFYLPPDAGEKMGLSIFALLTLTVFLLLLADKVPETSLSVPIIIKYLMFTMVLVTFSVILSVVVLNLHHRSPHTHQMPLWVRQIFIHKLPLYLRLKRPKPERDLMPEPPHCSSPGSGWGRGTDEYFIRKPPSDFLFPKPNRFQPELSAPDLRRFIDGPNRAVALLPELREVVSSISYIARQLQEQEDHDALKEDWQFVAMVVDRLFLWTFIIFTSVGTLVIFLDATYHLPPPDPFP
UniProt Q07001, 22-517 limits assumed: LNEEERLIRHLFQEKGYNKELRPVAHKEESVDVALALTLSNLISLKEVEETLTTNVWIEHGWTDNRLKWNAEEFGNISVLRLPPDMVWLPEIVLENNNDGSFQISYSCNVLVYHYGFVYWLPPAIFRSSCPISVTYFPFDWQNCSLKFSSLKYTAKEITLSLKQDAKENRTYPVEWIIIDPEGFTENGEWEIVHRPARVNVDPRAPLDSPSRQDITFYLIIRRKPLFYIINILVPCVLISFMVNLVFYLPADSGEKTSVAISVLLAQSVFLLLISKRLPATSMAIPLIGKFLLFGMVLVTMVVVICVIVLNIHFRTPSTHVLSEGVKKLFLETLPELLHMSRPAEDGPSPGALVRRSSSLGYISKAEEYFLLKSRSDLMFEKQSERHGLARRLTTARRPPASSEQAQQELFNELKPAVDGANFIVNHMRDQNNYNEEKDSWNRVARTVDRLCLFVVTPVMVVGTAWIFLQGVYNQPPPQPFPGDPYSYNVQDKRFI

In one assay the target is α1β1γδ nAChR (Homo sapiens, UniProt P02708+P07510+P11230+Q07001). As to conditions: read-out: IC50 α1β1γδ; fetal muscle type; TEVC, Xenopus laevis oocytes, holding -70 mV, 200 µM ACh, Hill fit, mean ± SEM, n ≥ 3.
The target of another assay is α1β1δε nAChR (Homo sapiens, UniProt P02708+P11230+Q04844+Q07001).

The IC50 is the point on the concentration scale where inhibition reaches its midpoint. For `C[C@@H]1NC(=O)[C@@H]2CCCN2C(=O)[C@H](Cc2c[nH]cn2)NC(=O)[C@@H]2CSSC[C@@H](C(N)=O)NC(=O)[C@H](CC(N)=O)NC(=O)[C@H](Cc3ccccc3)NC(=O)[C@H](CCCCN)NC(=O)[C@H](CCCCN)NC(=O)CNC(=O)[C@H](CSSC[C@H](NC(=O)[C@@H](N)CCCNC(=N)N)C(=O)N2)NC1=O`, the IC50 turned out to be 16 nM at α1β1γδ nAChR and 25 nM at α1β1δε nAChR.
